Measured values from several laboratories, pooled; numbers as filed in NIAID ChemDB.

Shared fields: tests in culture; agent: HIV-1

Fold resistance has wild type as its base. ECn is the concentration giving n% inhibition of infection, replication or growth. Rows are shuffled and stem from different studies. Inhibition is in % at the dose shown (toxicity tests: loss of growth or viability). Blank or dashed fields: not listed here.

structure | conditions | method | endpoint | strain | changes | cells | tested at | result
Cc1ccc(OCCNc2ccc(-c3cnc(C)c([C@H](OC(C)(C)C)C(=O)O)c3N3CCC(C)(C)CC3)cn2)cc1 |  | luminescence | EC50 | NL4-3 |  | MT-2 |  | 0.002 µM
CN(C)C(=O)C(=O)N(C)C1COCCn2c1nc(C(=O)NCc1ccc(F)cc1)c(O)c2=O |  | p24 | EC95 |  |  | MT-4 |  | <1 µM
Cc1ncc(-c2ccc(OCCn3cccn3)cn2)c(N2CCC(C)(C)CC2)c1[C@H](OC(C)(C)C)C(=O)O |  | luminescence | EC50 | NL4-3 |  | MT-2 |  | 0.0089 µM
CCc1cc(C#N)cc(C(=O)c2cc(Cl)ccc2OCC(=O)Nc2ccc(S(N)(=O)=O)cc2C)c1 |  | β-galactosidase | fold resistance | HXB2 | RT-K103N P225H | HeLa + HELA CD4+ |  | ~1
CN1CCn2c(nc(C(=O)NCc3ccc(F)cc3S(C)(=O)=O)c(O)c2=O)C1(C)C |  | p24 | EC95 |  |  | MT-4 |  | <1 µM
Cc1cc(S(N)(=O)=O)ccc1NC(=O)COc1ccc(Cl)cc1C(=O)c1cc(C#N)cc(C#N)c1 |  | β-galactosidase | EC50 | WTRVA |  | HeLa + HELA CD4+ |  | <0.01 µM
CCCCO[C@H](C(=O)O)c1c(C)ncc(-c2ccc(OCC3CCC3)cn2)c1N1CCC(C)(C)CC1 |  | luminescence | EC50 | NL4-3 |  | MT-2 |  | 0.02 µM
CN1Cn2c(nc(C(=O)NCc3ccc(F)cc3S(C)(=O)=O)c(O)c2=O)C1(C)C |  | p24 | EC95 |  |  | MT-4 |  | <1 µM
Cc1ccc(-c2ccc3c(c2)C=C(C(=O)Nc2ccc(C[N+](C)(C)C4CCOCC4)cc2)CCC3)cc1 |  | p24 | inhibition | Du174 CLADE C |  | PBMC | 1 µM | 99.1%
CCCCCCCCCCCCCCCCOP(=O)(OC[C@H]1OC(O)[C@@H](O)[C@@H](O)[C@@H]1O)OC[C@H]1O[C@@H](n2cc(C)c(=O)[nH]c2=O)C[C@@H]1N=[N+]=[N-] | 14 d | RT activity | inhibition | LAV-Bru |  | U-937 | 1 µM | 0%
Cc1cc(C#N)cc(C(=O)c2cc(Cl)ccc2OCC(=O)Nc2ccc(S(N)(=O)=O)cc2C)c1 |  | β-galactosidase | fold resistance | HXB2 | RT-V106I Y181C | HeLa + HELA CD4+ |  | ~1
Cc1ccc(C2CC2)c(-c2ccc3c(c2)CCCO3)c1[C@H](OC(C)(C)C)C(=O)O |  | luminescence | fold resistance | NL4-3 | INSTI-resistant (IN-N155H) | MT-4 |  | 1
Cc1cc2[nH]cnc2cc1NC(=O)COc1ccc(Cl)cc1C(=O)c1cc(F)cc(C(F)(F)F)c1 |  | β-galactosidase | fold resistance | HXB2 | RT-V106I Y181C | HeLa + HELA CD4+ |  | ~1
CCc1ncc(-c2ccc(OCCOc3ccccc3)cn2)c(N2CCC(C)(C)CC2)c1[C@H](OC(C)(C)C)C(=O)O |  | luminescence | EC50 | NL4-3 |  | MT-2 |  | 0.0032 µM
CC1(C)[C@@H](O[C@H]2O[C@H](C(=O)O)[C@@H](O)[C@H](O)[C@H]2O[C@@H]2O[C@H](C(=O)O)[C@@H](O)[C@H](O)[C@H]2O)CC[C@]2(C)[C@H]3C(=O)C=C4[C@@H]5C[C@@](C)(C(=O)O)CC[C@]5(C)CC[C@@]4(C)[C@]3(C)CC[C@@H]12 |  | cytopathic effect | inhibition | IIIB |  | MT-4 | 60 µM | 40%
C[C@@H]1CCO[C@H]2Cn3cc(C(=O)NCc4ccc(F)cc4F)c(=O)c(O)c3C(=O)N12 |  | luminescence | fold resistance | NL4-3 | NRTI/NNRTI resistant NLAY351753 | MT-4 |  | 1
O=C(NCCc1ccccc1)Nc1nc2ccccc2s1 |  | RT activity | inhibition |  |  | MT-4 | 10 µg/mL | 96%
CC(=O)Oc1ccc(C(=O)N2CCN(C(=O)C(=O)c3c[nH]c4ccccc34)CC2)cc1 |  | RT activity | inhibition | BRU |  | MT-2 | 10 µM | 91.5%
Cc1cc(S(N)(=O)=O)ccc1NC(=O)COc1ccc(Cl)cc1C(=O)c1cc(F)cc(C#N)c1 |  | β-galactosidase | fold resistance | HXB2 (RT-K103N Y181C) Recombinant | RT-K103N Y181C | HeLa + HELA CD4+ |  | ~1
CCC(=O)c1ccc(F)c([C@@H]2C[C@@H]2NC(=O)Nc2ccc(C#N)cn2)c1O |  | β-galactosidase / luminescence | fold resistance | LAI | NNRTI-resistant (RT K103N/Y181C) | TZM-bl |  | ≥250
Cc1cc(C#N)cc(C(=O)c2cc(Cl)ccc2OCC(=O)Nc2ccc(OCCCN3CC=CC3)cc2C)c1 |  | β-galactosidase | fold resistance | HXB2 | RT-V108I | HeLa + HELA CD4+ |  | ~1
C/C=C/CSc1cc(NC(=S)c2ccsc2C)ccc1Cl |  | p24 | fold resistance | 4XAZT+L100I (RT D67N K70R L100I T215Y K219Q) | RT-D67N K70R L100I T215Y K219Q | CEM + CEM-SS |  | 12
Cc1cn([C@H]2C[C@H](N=[N+]=[N-])[C@@H](COP(=O)(O)OCCO[C@H]3O[C@H](CO)[C@@H](O)[C@H](O)[C@@H]3O)O2)c(=O)[nH]c1=O | 26 d | RT activity | inhibition | LAV-Bru |  | CEM | 5 µM | 0%
CN(CC1c2nc(C(=O)NCc3ccc(F)cc3)c(O)c(=O)n2CCN1C)C(=O)CS(C)(=O)=O |  | p24 | EC50 |  |  | MT-4 |  | <50 µM
CCOCC(C)Oc1ccc(-c2cnc(C)c([C@H](OC(C)(C)C)C(=O)O)c2N2CCC(C)(C)CC2)cn1 |  | luminescence | EC50 | NL4-3 |  | MT-2 |  | 0.0052 µM
Cc1cc(C#N)cc(C(=O)c2cc(Cl)ccc2OCC(=O)Nc2ccc(S(N)(=O)=O)nc2C)c1 |  | β-galactosidase | fold resistance | HXB2 (RT-K103N Y181C) Recombinant | RT-K103N Y181C | HeLa + HELA CD4+ |  | ~1
O=C1[C@@H](Cc2ccccc2)NC(=S)N1Cc1ccccc1 |  | RT activity | inhibition |  |  | MT-4 | 100 µg/mL | 98%
Cc1cc(S(N)(=O)=O)ccc1NC(=O)COc1ccc(Cl)cc1C(=O)c1cccc(C#N)n1 |  | β-galactosidase | fold resistance | HXB2 | RT-K103N V108I | HeLa + HELA CD4+ |  | ~1
O=C(NCCc1ccccc1)Nc1nc2ccc(F)cc2s1 |  | RT activity | inhibition |  |  | MT-4 | 10 µg/mL | 16%
CCCCCCCCCCCCCCCCOP(=O)(OCCO[C@@H]1O[C@H](CO)[C@@H](O)[C@H](O)[C@@H]1O)OC[C@H]1O[C@@H](n2cc(C)c(=O)[nH]c2=O)C[C@@H]1N=[N+]=[N-] | 7 d | RT activity | inhibition | LAV-Bru |  | CEM | 0.2 µM | 81%
Cc1ncc(-c2ccc(OCCOc3ccc(Cl)cc3F)cn2)c(N2CCC(C)(C)CC2)c1[C@H](OC(C)(C)C)C(=O)O |  | luminescence | EC50 | NL4-3 |  | MT-2 |  | 0.0013 µM
CCc1c(Sc2cc(C)cc(C)c2)n(COCCO)c(=O)[nH]c1=O |  | syncytia | fold resistance | IIIB (TIBO 82150) (RT-L100I) | RT-L100I | CEM |  | 6.67
CNC(=O)CN1CCn2c(nc(C(=O)NCc3ccc(F)cc3)c(O)c2=O)C1(C)C |  | p24 | EC50 |  |  | MT-4 |  | <1 µM
C[C@H]1[C@H](O)[C@@H](C)/C=C/C=C/C=C/C=C/C=C/C=C/C=C/[C@H](O[C@@H]2O[C@H](C)[C@@H](O)[C@H](N)[C@@H]2O)C[C@@H]2O[C@](O)(C[C@@H](O)C[C@@H](O)CC[C@H](O)[C@@H](O)C[C@@H](O)CC(=O)O[C@H]1C)C[C@H](O)[C@H]2C(=O)O |  | p24 / RT activity | inhibition | 92UG037 CLADE A R5 (NSI) |  | PBMC | 3.4 µM | 90%
CC(C)CN(C(=O)C(=O)N(C)C)C1CN(C)CCn2c1nc(C(=O)NCc1ccc(F)cc1)c(O)c2=O |  | p24 | EC95 |  |  | MT-4 |  | <1 µM
Cc1cc(OCCCS(N)(=O)=O)ccc1NC(=O)COc1ccc(Cl)cc1C(=O)c1cc(F)cc(C(F)(F)F)c1 |  | β-galactosidase | fold resistance | HXB2 | RT-G190A | HeLa + HELA CD4+ |  | ~1

For reference, 2 entries again:

structure,conditions,method,endpoint,strain,changes,cells,tested at,result
Cc1cc(S(N)(=O)=O)ccc1NC(=O)COc1ccc(Cl)cc1C(=O)c1cc(F)cc(C#N)c1,,β-galactosidase,fold resistance,HXB2 (RT-K103N Y181C) Recombinant,RT-K103N Y181C,HeLa + HELA CD4+,,~1
C/C=C/CSc1cc(NC(=S)c2ccsc2C)ccc1Cl,,p24,fold resistance,4XAZT+L100I (RT D67N K70R L100I T215Y K219Q),RT-D67N K70R L100I T215Y K219Q,CEM + CEM-SS,,12